Data as given in ChEMBL document CHEMBL4819138, “Promising anti-SARS-CoV-2 drugs by effective dual targeting against the viral and host proteases” (Bioorg Med Chem Lett, 2021).

What was measured:
[1] = target: Replicase polyprotein 1ab (Severe acute respiratory syndrome coronavirus 2) (UniProt P0DTD1); experiment: Inhibition of SARS-CoV-2 main protease at 100 microg/ml relative to control; settings: dose 100.0 µg/ml
[2] = target: Replicase polyprotein 1ab (Severe acute respiratory syndrome coronavirus 2) (UniProt P0DTD1); experiment: Inhibition of SARS-CoV-2 papain-like protease at 100 microg/ml relative to control; settings: dose 100.0 µg/ml

Compound `N=C(N/N=C/c1ccccc1O)c1nonc1NCNc1nonc1C(=N)N/N=C/c1ccccc1O` has an inhibition [1] of 69.8% and an inhibition [2] of 80%.
